From publication PMC7038234, “Screening of Natural Extracts for Inhibitors against Japanese Encephalitis Virus Infection” (Antimicrobial Agents and Chemotherapy, 2020)
Where a name gives a salt, the structure may show the parent alone.

Each molecule was assayed on JEV strain AT31 (assay: microbe, parasite or virus in culture). Details: Japanese encephalitis virus, 24 h, Primary screening of 1034 compounds in the natural extracts library.
Molecule `CCOC(=O)c1cc(O)c(O)c(O)c1` [Ethyl gallate] has an inhibition at 50 µM of 9.31%.
For `CCCCC/C=C\C/C=C\CCCCCCCC(=O)O` [Linoleic acid], the inhibition at 50 µM was 12.3%.
Molecule `O=c1c2cc(O)c(O)cc2oc2cc(O)c([C@@H]3O[C@H](CO)[C@@H](O)[C@H](O)[C@H]3O)c(O)c12` [Mangiferin] has an inhibition at 50 µM of 5.76%.
`CCOC(=O)c1ccc(O)cc1` [Ethylparaben] gave an inhibition at 50 µM of -5.48%.
`C/C1=C\CC[C@]23O[C@H]2[C@@H](OC3=O)c2c(C)coc2C1` [Linderane] was tested, and the inhibition at 50 µM was 16.3%.
Work on `Cc1cc(O)c2c(=O)c3c(O)cc(O)c4c5c(O)cc(O)c6c(=O)c7c(O)cc(C)c8c1c2c(c34)c(c78)c65` [Hypericin] yielded an inhibition at 50 µM of 7.46%.
Molecule `C[C@@]12C[C@@]3(O)O[C@@H](O1)[C@]1(COC(=O)c4ccc(O)cc4)[C@@H]3C[C@]12O[C@@H]1O[C@H](COC(=O)c2ccccc2)[C@@H](O)[C@H](O)[C@H]1O` [Mudanpioside C] has an inhibition at 50 µM of -17.2%.
In the case of `C=C[C@]12CN(C)[C@@H]3[C@H]4CO[C@H](C[C@H]41)[C@]1(C(=O)Nc4ccccc41)[C@@H]32` [Gelsemine], the inhibition at 50 µM is reported as 99.1%.
With `COc1cc2c(c(OC)c1OC)-c1c(cc3c(c1OC)OCO3)C[C@H](C)[C@@](C)(O)C2` [Schisandrol B] the inhibition at 50 µM was 24%.
For `C[C@]1(OC(=O)/C=C/c2ccccc2)C[C@@H](O)[C@]2(O)C=CO[C@@H](O[C@@H]3O[C@H](CO)[C@@H](O)[C@H](O)[C@H]3O)[C@@H]21` [Harpagoside], the inhibition at 50 µM was -0.596%.
`O=C(O)CC(O)C(=O)O` (stereo not shown) [Malic acid] gave an inhibition at 50 µM of -11.7%.
`Cc1cc2c(C(C)C)c(O)c(O)c(C=O)c2c(O)c1-c1c(C)cc2c(C(C)C)c(O)c(O)c(C=O)c2c1O` [Gossypol] was tested, and the inhibition at 50 µM was 69.6%.
For `Oc1cc(O)cc(/C=C/c2ccc(O)cc2O)c1` [Oxyresveratrol], the inhibition at 50 µM was 22.8%.
`CC(C)=CCCC1=CC(=O)c2c(O)ccc(O)c2C1=O` [deoxyshikonin] was tested, and the inhibition at 50 µM was -45.9%.
Molecule `O=C(O)[C@H]1O[C@@H](Oc2cc3oc(-c4ccccc4)cc(=O)c3c(O)c2O)[C@H](O)[C@@H](O)[C@@H]1O` [Baicalin] has an inhibition at 50 µM of -23.8%.
With `COc1cc(-c2coc3cc(O)c(OC)c(O)c3c2=O)cc(O)c1OC` [irigenin] the inhibition at 50 µM was 85.6%.
`OC[C@@H](O)[C@H](O)[C@@H](O)CO` [Xylitol] showed an inhibition at 50 µM of -9.02%.
With `C[C@@]12CC[C@@H]3[C@@](CC[C@H]4[C@@]3(C)CCC[C@@]4(C)C(=O)O)(CC1=O)C2` [iso-Steviol] the inhibition at 50 µM was -11.2%.
In the case of `O=c1c(-c2ccc(O)cc2)coc2c([C@@H]3O[C@H](CO)[C@@H](O)[C@H](O)[C@H]3O)c(O)ccc12` [puerarin], the inhibition at 50 µM is reported as -10.6%.
`C=C(C)[C@@H]1CC[C@]2(C(=O)O)CC[C@]3(C)[C@H](CC[C@@H]4[C@@]5(C)CC[C@H](O)C(C)(C)[C@@H]5CC[C@]43C)[C@@H]12` [Betulinic acid] was tested, and the inhibition at 50 µM was -139%.
For `COc1ccc(-c2cc(=O)c3c(O)c(OC)c(O[C@@H]4O[C@H](CO[C@@H]5O[C@@H](C)[C@H](O)[C@@H](O)[C@H]5O)[C@@H](O)[C@H](O)[C@H]4O)cc3o2)cc1` [Pectolinarin], the inhibition at 50 µM was -5.95%.
For `CC[C@]12C=CCN3CC[C@]4(C(=C(C(=O)OC)C1)Nc1ccccc14)[C@@H]32` [Tabersonine], the inhibition at 50 µM was 95.7%.
`COc1ccc2c(c1OC)CN1CCc3cc4c(cc3C1C2)OCO4` (stereo not shown) [Tetrahydroberberine] was tested, and the inhibition at 50 µM was 28%.
Molecule `CC1=CCC2CC1C2(C)C` (stereo not drawn) [α-Pinene] has an inhibition at 50 µM of -0.747%.
With `COc1cc2c(=O)c(-c3ccc(O)cc3)coc2cc1O` [Glycitein] the inhibition at 50 µM was 5.33%.
For `O=C1CCC[C@@H]2[C@H]3CCCN4CCC[C@H](CN12)[C@@H]34` [sophoridine], the inhibition at 50 µM was -7.2%.
`COc1cc([C@@H]2[C@H]3CO[C@@]4(O)C(=O)[C@@H]2C=C([C@H]2Oc5cc(O)cc(O)c5C(=O)[C@@H]2O)[C@@H]34)ccc1O` [Silidianin] gave an inhibition at 50 µM of 10%.
Work on `COc1ccc(C[C@@H]2c3cc(Oc4cc(C[C@@H]5c6cc(O)c(OC)cc6CCN5C)ccc4O)c(OC)cc3CCN2C)cc1` [Isoliensinine] yielded an inhibition at 50 µM of 99.4%.
Work on `COc1ccc(-c2coc3cc(O[C@@H]4O[C@H](CO)[C@@H](O)[C@H](O)[C@H]4O)ccc3c2=O)cc1` [Ononin] yielded an inhibition at 50 µM of 0.375%.
With `COc1c(O[C@@H]2O[C@H](CO)[C@@H](O)[C@H](O)[C@H]2O)cc2c(c1OC)-c1ccc(SC)c(=O)cc1[C@@H](NC(C)=O)CC2` [Thiocolchicoside] the inhibition at 50 µM was 47.1%.
`C1C2CC3CC1CC(C2)C3` [Adamantane] was tested, and the inhibition at 50 µM was -11.2%.
`O=C(CCc1ccc(O)cc1)c1c(O)cc(O)cc1O` [Phloretin] was tested, and the inhibition at 50 µM was 4.16%.
`C[n+]1cccc(C(=O)[O-])c1` [Trigonelline Hydrochloride] showed an inhibition at 50 µM of -57.9%.
Work on `CC(C)=CCC[C@]1(C)C=Cc2c(O)c3c(c(CC=C(C)C)c2O1)O[C@]12C(=C[C@@H]4C[C@H]1C(C)(C)O[C@@]2(C/C=C(/C)C(=O)O)C4=O)C3=O` [Gambogic acid] yielded an inhibition at 50 µM of 84.8%.
Work on `O=C1OC[C@H]2OC(O)[C@H](O)[C@@H](O)[C@@H]2OC(=O)c2cc(O)c(O)c(O)c2-c2c(O)c(O)c3oc(=O)c4c(c(O)c(O)c5oc(=O)c2c3c54)-c2c1cc(O)c(O)c2O` (mixture of isomers) [Punicalin] yielded an inhibition at 50 µM of 28.2%.
`CC(C)=CCC[C@](C)(O[C@@H]1O[C@H](CO[C@@H]2OC[C@@H](O)[C@H](O)[C@H]2O)[C@@H](O)[C@H](O)[C@H]1O)[C@H]1CC[C@]2(C)[C@@H]1[C@H](O)C[C@@H]1[C@@]3(C)CC[C@H](O[C@@H]4O[C@H](CO)[C@@H](O)[C@H](O)[C@H]4O[C@@H]4O[C@H](CO)[C@@H](O)[C@H](O)[C@H]4O)C(C)(C)[C@@H]3CC[C@]12C` [Ginsenoside Rb3] showed an inhibition at 50 µM of 29.5%.
`O=C(C[C@H]1NCCC[C@@H]1O)Cn1cnc2ccccc2c1=O` [Febrifugine] showed an inhibition at 50 µM of 54.7%.
Molecule `O=c1ccc2ccc3occc3c2o1` [Isopsoralen] has an inhibition at 50 µM of 21%.
`CCCOC(=O)c1ccc(O)cc1` [Propylparaben] gave an inhibition at 50 µM of -0.514%.
Work on `O=C(/C=C/c1ccc(O)cc1)c1ccc(O)cc1O` [Isoliquiritigenin] yielded an inhibition at 50 µM of 59.1%.
In the case of `COc1c2ccoc2c(OC)c2oc(=O)ccc12` [Isopimpinellin], the inhibition at 50 µM is reported as 27.4%.
With `CC[C@@]1(O)C(=O)OCc2c1cc1n(c2=O)Cc2cc3c(N)cccc3nc2-1` [9-Aminocamptothecin] the inhibition at 50 µM was 67.5%.
`C=C1CCC2CC1C2(C)C` (stereo not drawn) [beta-Pinene] showed an inhibition at 50 µM of 14%.
Work on `O=C(O)c1cc(O)c2c(c1)[C@@H]([C@H]1c3cc(C(=O)O)cc(O)c3C(=O)c3c(O[C@@H]4O[C@H](CO)[C@@H](O)[C@H](O)[C@H]4O)cccc31)c1cccc(O[C@@H]3O[C@H](CO)[C@@H](O)[C@H](O)[C@H]3O)c1C2=O` [SennosideB] yielded an inhibition at 50 µM of -11.7%.
In the case of `O=c1cc(-c2ccc(O)cc2)oc2c([C@@H]3O[C@H](CO)[C@@H](O)[C@H](O)[C@H]3O)c(O)cc(O)c12` [Vitexin], the inhibition at 50 µM is reported as 13.2%.
`CC[C@H](C)C(=O)O[C@H]1C[C@@H](C)C=C2C=C[C@H](C)[C@H](CC[C@@H]3C[C@@H](O)CC(=O)O3)[C@H]21` [Lovastatin] gave an inhibition at 50 µM of 60.1%.
Work on `COc1ccc(-c2cc(=O)c3c(O)c(OC)c(O)cc3o2)cc1OC` [Eupatilin] yielded an inhibition at 50 µM of 34.9%.
For `C[C@@H]1O[C@@H](OC[C@H]2O[C@@H](OCCc3ccc(O)c(O)c3)[C@H](O)[C@@H](O[C@@H]3O[C@@H](C)[C@H](O)[C@@H](O)[C@H]3O)[C@@H]2OC(=O)/C=C/c2ccc(O)c(O)c2)[C@H](O)[C@H](O)[C@H]1O` [Poliumoside], the inhibition at 50 µM was 14.5%.
`O=C(/C=C/c1ccccc1)OC[C@H]1O[C@@H](O[C@@H]2OC=C[C@H]3[C@H](O)[C@@H]4O[C@]4(CO)[C@@H]23)[C@H](O)[C@@H](O)[C@@H]1O` [Picroside I] showed an inhibition at 50 µM of -1.37%.
`COC(=O)C1=CO[C@@H](O[C@@H]2O[C@H](CO)[C@@H](O)[C@H](O)[C@H]2O)[C@@H]2[C@H](C)O[C@@H](O)C[C@H]12` [Morroniside] was tested, and the inhibition at 50 µM was 4.07%.
`CC(=O)O[C@@H]1C[C@H](O)[C@@]23CO[C@@H](O)[C@]1(C)[C@@H]2C[C@@H](O)[C@]1(C)[C@@H]3C(=O)[C@H](OC(C)=O)[C@@]2(C)[C@H](c3ccoc3)C[C@H]3O[C@]321` [Toosendanin] was tested, and the inhibition at 50 µM was 33%.
For `CCN1C[C@]2(COC)[C@H](O)C[C@H](OC)[C@@]34[C@@H]5C[C@@]6(O)[C@H](OC(=O)c7ccccc7)[C@@H]5[C@@](OC(C)=O)([C@@H]([C@H](OC)[C@H]23)[C@@H]14)[C@@H](O)[C@@H]6OC` [Aconitine], the inhibition at 50 µM was 22%.
In the case of `C=CCS[S+]([O-])CC=C` (stereo not shown) [Allicin], the inhibition at 50 µM is reported as 39.7%.
With `CCc1c2c(nc3ccc(O)cc13)-c1cc3c(c(=O)n1C2)COC(=O)[C@]3(O)CC` [7-Ethyl-10-hydroxycamptothecin] the inhibition at 50 µM was 66.4%.
Molecule `CO[C@H]1C[C@H](O[C@H]2CC[C@@]3(C)[C@H](CC[C@@H]4[C@@H]3CC[C@]3(C)[C@@H](C5=CC(=O)OC5)[C@@H](OC(C)=O)C[C@]43O)C2)O[C@@H](C)[C@@H]1O` [Oleandrin] has an inhibition at 50 µM of -16.9%.
Work on `CC[C@]1(O)C[C@@H]2CN(CCc3c([nH]c4ccccc34)[C@@](C(=O)OC)(c3cc4c(cc3OC)N(C)[C@H]3[C@@](O)(C(=O)OC)[C@H](OC(C)=O)[C@]5(CC)C=CCN6CC[C@]43[C@@H]65)C2)C1` [Vinblastine sulfate] yielded an inhibition at 50 µM of 62.3%.
Work on `CC[C@H]1CN2CCc3cc(OC)c(OC)cc3[C@@H]2C[C@@H]1C[C@H]1NCCc2cc(OC)c(OC)cc21` [Emetine hydrochloride] yielded an inhibition at 50 µM of 12.7%.
`COc1cc2oc(=O)ccc2c(OC)c1C[C@@H](O)C(C)(C)O` [toddalolactone] was tested, and the inhibition at 50 µM was 14.2%.
With `C/C=C1/[C@H](O[C@@H]2O[C@H](CO)[C@@H](O)[C@H](O)[C@H]2O)OC=C(C(=O)OC)[C@H]1CC(=O)OCCc1ccc(O)c(O)c1` [Oleuropein] the inhibition at 50 µM was -4.16%.
In the case of `C=C[C@@]12CN(C)[C@H]3C[C@]14C(=Nc1ccccc14)[C@H]1C[C@@H]2[C@@H]3CO1` [Koumine], the inhibition at 50 µM is reported as 98.9%.
Work on `C=C1CCC[C@]2(C)C[C@@H]3OC(=O)C(C)=C3C[C@@H]12` [AtractylenolideII] yielded an inhibition at 50 µM of 56%.
In the case of `Oc1cc(O)cc(/C=C/c2ccc(O)c(O)c2)c1` [Piceatannol], the inhibition at 50 µM is reported as -21.4%.
For `O=c1cc(-c2ccc(O)c(O)c2)oc2cc(O)cc(O)c12` [luteolin], the inhibition at 50 µM was 19.3%.
`COc1cc(O)ccc1/C=C/C(=O)c1ccc(O)cc1` [Echinatin] gave an inhibition at 50 µM of 36.8%.
